In this experiment the target is A2.1/K^b (UniProt P01901+P04439, D140Y/D185E/D98H/E176V/G131W/I119V/I121R/I166T/N151K/N90K/Q86G/Q94H/R138H/R169H). Briefly: Binding inhibition assay (competition with influenza A-specific peptide, lysis by influenza A-specific CTL clone 12). Set-up: species or system human-mouse chimeric. As to conditions: 10 μg test peptide, 0.1 μg influenza A-specific peptide; E:T=0.3:1; FIG. 1.

By UniProt entry, the sequences of proteins in these tests, tags left out. Where a name states a change or a piece, a line headed by the entry shows the natural chain unless it says otherwise.
UniProt P01901: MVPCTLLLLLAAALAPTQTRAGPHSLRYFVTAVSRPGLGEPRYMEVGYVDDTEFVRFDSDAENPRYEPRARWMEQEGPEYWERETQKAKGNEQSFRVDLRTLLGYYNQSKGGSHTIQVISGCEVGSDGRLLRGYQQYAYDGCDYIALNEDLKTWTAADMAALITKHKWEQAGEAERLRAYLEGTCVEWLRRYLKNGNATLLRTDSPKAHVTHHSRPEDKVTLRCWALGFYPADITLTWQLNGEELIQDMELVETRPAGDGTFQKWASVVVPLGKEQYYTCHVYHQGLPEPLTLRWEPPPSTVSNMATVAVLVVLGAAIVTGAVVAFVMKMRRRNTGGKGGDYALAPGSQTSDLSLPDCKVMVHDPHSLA
UniProt P04439: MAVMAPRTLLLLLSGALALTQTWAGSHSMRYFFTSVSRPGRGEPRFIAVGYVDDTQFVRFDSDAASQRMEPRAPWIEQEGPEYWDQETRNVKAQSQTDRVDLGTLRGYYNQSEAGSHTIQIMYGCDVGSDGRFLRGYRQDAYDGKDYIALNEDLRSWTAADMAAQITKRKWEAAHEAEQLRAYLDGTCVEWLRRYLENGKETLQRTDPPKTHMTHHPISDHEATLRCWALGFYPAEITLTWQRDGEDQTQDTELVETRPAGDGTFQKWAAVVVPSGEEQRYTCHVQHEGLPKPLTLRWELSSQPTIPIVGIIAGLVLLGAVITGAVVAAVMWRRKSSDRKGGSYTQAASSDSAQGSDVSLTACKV

With ASNENMETM, the “binding of test peptide to A2.1/K^b (percent specific lysis of EA2/K^b targets by influenza A-specific CTL)” value is reported as “highest percent specific lysis”. Then RGYVYQGL, with “highest percent specific lysis”.

The record behind these values is patent US7402314B2, “In vivo activation of tumor-specific cytotoxic T cells” (The Scripps Research Institute, priority 1995, dated 2008).
